Measured values from several laboratories, pooled; numbers as filed in NIAID ChemDB.

Shared fields: growth or infection tests; species: HIV-1; cell line: MT-4; endpoint: EC50

An empty or dashed field is not shown. Conditions beyond the fields shown may differ between rows. ECn is the concentration giving n% inhibition of infection, replication or growth.

SMILES,strain or isolate,changes,read by,value
Cc1cc(C)c(Oc2ccc([N+](=O)[O-])c(NC3CCN(Cc4ccc(S(N)(=O)=O)cc4)CC3)n2)c(C)c1,IIIB,,MTT,0.0085 µg/mL
CCC[C@@]1(CCc2ccccc2)CC(O)=C([C@H](CC)c2cccc(NS(=O)(=O)c3ccc(C(F)(F)F)cn3)c2)C(=O)O1,NL4-3,,p24,<0.07 µM
Cc1cn([C@H]2C[C@H](N=[N+]=[N-])[C@@H](CO)O2)c(=O)[nH]c1=O,IIIB,,RT activity,0.01 µM
Cc1cc(C#N)cc(C)c1Oc1ccc([N+](=O)[O-])c(NC2CCN(Cc3ccncc3)CC2)n1,IIIB,,MTT,0.039 µg/mL
Cc1c(Cc2ccccc2)c(=O)[nH]c(=O)n1COCc1ccccc1,,,ELISA,20 µM
O=C(O)c1cc(O)c(O)c(O)c1,IIIB,,MTT,7.3 µM
Cc1ccnc2c1NC(=O)c1cccnc1N2C1CC1,K103N,NNRTI-resistant (RT K103N),MTT,0.133 µM
CCCCCCCCCC(=O)O[C@@]12[C@H](OCOCc3ccccc3)[C@@H](C)[C@@]3(O)[C@@H](C=C(CO)C[C@]4(O)C(=O)C(C)=C[C@@H]34)[C@@H]1C2(C)C,IIIB,,cytopathic effect / MTT,0.00027 µg/mL
S=C(NCCN1CCNCC1)Nc1ccc(Br)cn1,IIIB,,RT activity,>100 µM
CC1=C[C@H]2[C@@]3(O)[C@H](C)[C@@H](O)[C@]4(O)[C@H]([C@@H]3C=C(CO)C[C@]2(O)C1=O)C4(C)C,IIIB,,,>10 µg/mL
Cc1cc(S(N)(=O)=O)ccc1NC(=O)COc1ccc(Cl)cc1C(=O)c1cccc(C#N)c1,IIIB WT,,cytopathic effect / MTS,0.001 µM
Cc1cc(C#N)cc(C)c1Oc1ccc(N)c(NC2CCN(Cc3ccc(S(N)(=O)=O)cc3)CC2)n1,IIIB,Resistant strain (K103N + Y181C),MTT,0.99 µM
O=C(CCC(=O)N1CCN(CCNC(=S)Nc2ccc(Br)cn2)CC1)NCC(=O)OC[C@@H]1C=C[C@H](n2ccc(=O)[nH]c2=O)O1,IIIB,,RT activity,>100 µM
COc1cc([C@@H]2c3cc(O)c(OC)cc3C[C@@H](CO)[C@@H]2CO)ccc1O,IIIB,,MTT,167 µM
Cc1cn([C@H]2C[C@@H](N=[N+]=[N-])[C@@H](CO)O2)c(=O)[nH]c1=O,IIIB,Resistant strain (K103N + Y181C),MTT,0.0063 µM
CC(C)CN(C[C@@H](O)[C@H](Cc1ccc(Oc2ccncn2)cc1)NC(=O)O[C@H]1CO[C@H]2OCC[C@H]21)S(=O)(=O)c1ccc2c(c1)OCO2,HXB2,,cytopathic effect,0.002 µM
CC(C)NC(=O)c1cnnn1C1OC(CO[Si](C)(C)C(C)(C)C)C2(OS(=O)(=O)C=C2N)C1O[Si](C)(C)C(C)(C)C,IIIB,,cytopathic effect,0.72 µM
C1CNCCNCCCN(CCCN2CCCNCCNCCCNCC2)CCNC1,IIIB,,cytopathic effect / MTT,0.11 µg/mL
CCCCCCCCCC(=O)O[C@@]12[C@H](OC(OC)OCC)[C@@H](C)[C@@]3(O)[C@@H](C=C(CO)C[C@]4(O)C(=O)C(C)=C[C@@H]34)[C@@H]1C2(C)C,IIIB,,cytopathic effect / MTT,0.00372 µg/mL
Cc1cn([C@H]2C[C@H](N=[N+]=[N-])[C@@H](CO)O2)c(=O)[nH]c1=O,IIIB,,p24,0.000542 µM
Nc1ccn([C@H]2CC[C@@H](CO)O2)c(=O)n1,IIIB,,cytopathic effect / trypan blue,0.7 µg/mL
Cc1cc(C#N)cc(C)c1Oc1ccc([N+](=O)[O-])c(NC2CCN(Cc3ccc(C(N)=O)cc3)CC2)n1,IIIB,,MTT,0.031 µg/mL
Cc1[nH]c(=O)[nH]c(=O)c1COCc1ccccc1,,,ELISA,>53 µM
Cc1cc(C#N)cc(C)c1Oc1ccc([N+](=O)[O-])c(NC2CCN(Cc3ccc(S(C)(=O)=O)cc3)CC2)n1,IIIB,Resistant strain (K103N + Y181C),MTT,>32 µM
Cc1ccccc1NC(=O)COc1ccc(Cl)cc1C(=O)c1cc(F)cc(F)c1,Nevirapine-resistant,RT-Y181C,cytopathic effect / MTS,0.036 µM
C=C1OC(C(=O)O)C(/C(=C/C(=O)O)C(=O)OC2C3COC(=O)c4cc(O)c(O)c(O)c4-c4c(cc(O)c(O)c4O)C(=O)OC2C(O)C(OC(=O)c2cc(O)c(O)c(O)c2)O3)c2c1cc(O)c(O)c2O,,,cytopathic effect,10.1 µM
COc1cc(OC)cc(OC2O[C@H](CO)[C@@H](O)[C@H](O)[C@H]2O)c1,IIIB,,MTT,193 µM
C[C@@H]1O[C@@H](O[C@H]2[C@H](O[C@H]3[C@H](O[C@H]4CC[C@@]5(C)[C@@H](CC[C@]6(C)[C@@H]5CC=C5[C@@H]7CC(C)(C)C[C@@H](O)[C@]7(C)CC[C@]56C)[C@@]4(C)CO)O[C@H](C(=O)O)[C@@H](O)[C@@H]3O)O[C@H](CO)[C@H](O)[C@@H]2O)[C@H](O)[C@H](O)[C@H]1O,IIIB,,cytopathic effect / trypan blue,<125 µg/mL
Cc1cc(C#N)cc(C)c1Oc1ccc([N+](=O)[O-])c(NC2CCN(Cc3ccc(S(N)(=O)=O)cc3)CC2)n1,IIIB,,MTT,0.019 µg/mL
Cc1c(Cc2ccccc2)c(=O)n(Cc2ccccc2)c(=O)n1Cc1ccccc1,,,ELISA,>53 µM
COC(=O)C1=C[C@H](O)[C@@H](O)[C@H](O)C1,IIIB,,MTT,124.4 µM
Cc1c(CBr)c(=O)n(Cc2ccccc2)c(=O)n1Cc1ccccc1,,,ELISA,26 µM
COc1ccc(Sc2nc(N)nc3c2ncn3CCOCP(=O)(OCC(F)(F)F)OCC(F)(F)F)cc1,IIIB,,cytopathic effect / MTT,>34 µM
CCCCCCCCCCCCCCCCCC(=O)N[C@@H](CO[C@@H]1O[C@H](CO)C(O)[C@H](O)[C@H]1NC(C)=O)C(=O)NCCCCCCCCCCCCCC,,,antigen,>100 µM
CC(C)[C@H](NC(=O)N(C)Cc1ccccn1)C(=O)N[C@@H](Cc1ccccc1)[C@H](O)[C@H](O)[C@H](Cc1ccccc1)NC(=O)[C@@H](NC(=O)N(C)Cc1ccccn1)C(C)C,MN,,cytopathic effect / MTT,0.12 µM
CCOCn1c(Cc2ccccc2)c(C(C)C)c(=O)[nH]c1=O,IIIB WT,,cytopathic effect / MTT,0.0079 µM
CC(C)(C)[Si](C)(C)OCC1OC(n2nncc2C(=O)NC2CCCC2)C(O[Si](C)(C)C(C)(C)C)C12OS(=O)(=O)C=C2N,IIIB,,cytopathic effect,0.86 µM
CCc1c(Sc2ccccc2)n(COCc2ccccc2)c(=O)[nH]c1=O,A012D,,cytopathic effect / MTT,0.0029 µM
Cc1cn([C@H]2C[C@H](N=[N+]=[N-])[C@@H](CO)O2)c(=O)[nH]c1=O,IIIB,,MTT,0.0036 µM
CC(C)(C)[Si](C)(C)OCC1OC(n2nncc2C(=O)NC2CC2)C(O[Si](C)(C)C(C)(C)C)C12OS(=O)(=O)C=C2N,IIIB,,cytopathic effect,0.19 µM
CC(C)=CCN1c2cc(Cl)cc3[nH]c(=S)n(c23)C[C@@H]1C,,RT-L74V L100I,,<0.4 µM
CC(C)(C)OC(=O)N[C@@H](Cc1ccccc1)[C@@H](O)C[C@@H](Cc1ccc(OCCN2CCOCC2)cc1)C(=O)N[C@H]1c2ccccc2C[C@H]1O,NL4-3,,p24,0.01 µM
CC(C)c1nc(CN(C)C(=O)N[C@H](C(=O)N[C@@H](Cc2ccccc2)C[C@H](O)[C@H](Cc2ccccc2)NC(=O)OCc2cncs2)C(C)C)cs1,NL4-3,,p24,0.03 µM
CC(C)(C)[Si](C)(C)OCC1OC(n2nncc2C(=O)NC2CCC2)C(O[Si](C)(C)C(C)(C)C)C12OS(=O)(=O)C=C2N,IIIB,,cytopathic effect,0.35 µM

A second listing of 4 rows from above:

SMILES,strain or isolate,changes,read by,value
Cc1cc(C#N)cc(C)c1Oc1ccc([N+](=O)[O-])c(NC2CCN(Cc3ccc(S(N)(=O)=O)cc3)CC2)n1,IIIB,,MTT,0.019 µg/mL
CC(C)[C@H](NC(=O)N(C)Cc1ccccn1)C(=O)N[C@@H](Cc1ccccc1)[C@H](O)[C@H](O)[C@H](Cc1ccccc1)NC(=O)[C@@H](NC(=O)N(C)Cc1ccccn1)C(C)C,MN,,cytopathic effect / MTT,0.12 µM
CC(C)(C)[Si](C)(C)OCC1OC(n2nncc2C(=O)NC2CCC2)C(O[Si](C)(C)C(C)(C)C)C12OS(=O)(=O)C=C2N,IIIB,,cytopathic effect,0.35 µM
Cc1cc(C#N)cc(C)c1Oc1ccc(N)c(NC2CCN(Cc3ccc(S(N)(=O)=O)cc3)CC2)n1,IIIB,Resistant strain (K103N + Y181C),MTT,0.99 µM